Measurements taken from article PMC8956739 (Nature Communications, 2022).
Residues, ends and D or L forms follow the SMILES beside them.

tested on: HK-2 cells; test: Transcriptomic analysis (RNA-Seq) of kidney cells; format: cell-based, human; conditions: 100 μM, 24 h, fold change ≥ 1.5
Experimental: Human Kidney-2 (HK-2) cells (CRL-2190™, American Type Culture Collection) were treated with 100 μM colistin, F287, F319, and F365 for 24 h. Previous transcriptomic data of HK-2 cells following 24 h treatment with polymyxin B[26] were also employed for comparative bioinformatic analysis. RNA extraction was conducted as described above. Raw reads were aligned to genome GRCh38.94 (Ensembl genome database, http://ftp.ensembl.org/pub/release-94/fasta/homo_sapiens/dna/) using […] and summarized by featureCounts. Differentially expressed genes were determined using limma 3.46.0, with a combination of fold change ≥ 1.5 and FDR (by Benjamini–Hochberg algorithm) adjusted P-value ≤ 0.05 (n = 3). Key regulatory genes of HK-2 were analyzed in the context of signaling network in the Signor 2.0 database. Enrichment analysis of gene differential expression in HK-2 cells was conducted using enrichR 2.1. UpSetR 1.4.0, ComplexHeatmap 2.6.2, circlize 0.4.13 and iGraph 1.2.11 were used for data visualization. Raw data were deposited in the Short Reads Archive database under accession numbers SRR15239061-SRR15239078.

Point of comparison: `CCCCCCCC(=O)N[C@@H](CCN)C(=O)N[C@H](C(=O)N[C@@H](CN)C(=O)N[C@H]1CCNC(=O)[C@H]([C@@H](C)O)NC(=O)[C@H](CCN)NC(=O)[C@H](CCN)NC(=O)[C@H](CC)NC(=O)[C@@H](CC(C)C)NC(=O)[C@H](CCN)NC1=O)[C@@H](C)O` [Lipopeptide F287] (HELM PEPTIDE1{[CCCCCCCC(=O)[*:2]].[Dab].T.[NC[C@H](N[*:1])C(=O)[*:2]].[Dab].[Dab].[dL].[Abu].[Dab].[Dab].T}$PEPTIDE1,PEPTIDE1,5:R3-11:R2$$$V2.0), “number of genes with significantly changed expression” value 1076 genes. Against it:
- CCCCCCCC(=O)N[C@@H](CCN)C(=O)N[C@H](C(=O)N[C@@H](CCN)C(=O)N[C@H]1CCNC(=O)[C@H]([C@@H](C)O)NC(=O)[C@H](CCN)NC(=O)[C@H](CCN)NC(=O)[C@H](CC)NC(=O)[C@@H](CC(C)C)NC(=O)[C@H](CCN)NC1=O)[C@@H](C)O [Lipopeptide F319] (HELM PEPTIDE1{[CCCCCCCC(=O)[*:2]].[Dab].T.[Dab].[Dab].[Dab].[dL].[Abu].[Dab].[Dab].T}$PEPTIDE1,PEPTIDE1,5:R3-11:R2$$$V2.0) — lower, 763 genes
- CC[C@@H]1NC(=O)[C@@H](CC(C)C)NC(=O)[C@H](CCN)NC(=O)[C@@H](NC(=O)[C@H](CN)NC(=O)[C@@H](NC(=O)[C@H](CCN)NC(=O)c2ccc(Cl)cc2Cl)[C@@H](C)O)CCNC(=O)[C@H]([C@@H](C)O)NC(=O)[C@H](CCN)NC(=O)[C@H](CCN)NC1=O [Lipopeptide F365] (HELM PEPTIDE1{[O=C(c1ccc(Cl)cc1Cl)[*:2]].[Dab].T.[NC[C@H](N[*:1])C(=O)[*:2]].[Dab].[Dab].[dL].[Abu].[Dab].[Dab].T}$PEPTIDE1,PEPTIDE1,5:R3-11:R2$$$V2.0) — lower, 70 genes
- Colistin [reference compound] — higher, 1282 genes
